These results are taken from US7678778B2 (priority 2004, dated 2010).

This data set can be described thus: Storage stability of lyophilized compound (purity assay). The following applies: −23° C., 3 months. Format: physicochemical.

Regarding `O=P(O)(NCCCl)NCCCl`, the purity on storage worked out at 70%.
